Results of unrelated studies side by side (data: NIAID ChemDB).

Common to all: host cell toxicity; cell line: PRK; endpoint: CC50

CCn is the concentration with n% toxicity to the cells. Rows are shuffled and stem from different studies.

structure | value
Cc1nc(C(C)C)c2[nH]c(=S)[nH]c(=O)n12 | 200 µg/mL
Nc1nc(=O)n([C@H]2C[C@H](O)[C@@H](CO)O2)cc1/C=C\Cl | >200 µg/mL
O=c1[nH]c(=O)n([C@H]2C[C@@H](CO)[C@H](O)C2)cc1I | ≥400 µg/mL
[N-]=[N+]=N[C@H]1[C@@H](F)[C@H](N2C=CC(N)NC2=O)O[C@@H]1CO | >400 µg/mL
C=CCc1nc(C)n2c(=O)[nH]c(=S)[nH]c12 | 40 µg/mL
Nc1ncnc2c1ncn2C1CC(COP(=O)(O)O)[C@@H](O)[C@H]1O | 20 µg/mL
O=c1[nH]c(=O)n([C@@H]2OC3COP(=O)(O)OC3[C@H]2O)cc1F | ≥100 µg/mL
O=c1[nH]c(=O)n([C@@H]2C[C@H](CO)[C@@H](O)C2)cc1I | >400 µg/mL
N=C(N)CCNC(=O)c1c[nH]c(NC(=O)c2c[nH]c(NC(=O)c3ccc(CC(=O)Nc4c[nH]c(C(=O)Nc5c[nH]c(C(=O)NCCC(=N)N)c5)c4)cc3)c2)c1 | ≥10 µg/mL
Nc1ncnc2c1ncn2C1CC(CO)[C@@H](O)[C@H]1O | 10 µg/mL
NC1CCCON2CCc3c([nH]c4ccccc34)[C@H]12 | 400 µg/mL
N=C(N)CCNC(=O)c1c[nH]c(NC(=O)c2c[nH]c(NC(=O)CCCCCCCC(=O)Nc3c[nH]c(C(=O)Nc4c[nH]c(C(=O)NCCC(=N)N)c4)c3)c2)c1 | ≥100 µg/mL
CC(=O)Nc1nc2c(CC(O)CO)ncn2c(=O)[nH]1 | 200 µg/mL
O=c1[nH]c(=O)n([C@@H]2OC3COP(=O)(O)OC3[C@H]2O)cc1I | >400 µg/mL
COc1ccc2[nH]c3c(c2c1)CCN1OCSCC(N)[C@@H]31 | ≥1 µg/mL
N=C(N)CCNC(=O)c1c[nH]c(NC(=O)c2c[nH]c(NC(=O)c3c[nH]c(NC(=O)CCC(=O)Nc4c[nH]c(C(=O)Nc5c[nH]c(C(=O)Nc6c[nH]c(C(=O)NCCC(=N)N)c6)c5)c4)c3)c2)c1 | ≥40 µg/mL
Cc1cn([C@H]2O[C@H](CO)[C@@H](N=[N+]=[N-])[C@H]2F)c(=O)nc1N | >400 µg/mL
Nc1nc(=O)n([C@H]2C[C@H](O)[C@@H](CO)O2)cc1/C=C/Cl | >400 µg/mL
[N-]=[N+]=N[C@H]1[C@@H](F)[C@H](n2cnc3c(N)ncnc32)O[C@@H]1CO | >400 µg/mL
O=c1[nH]c(=O)n(C2CC(CO)[C@H](O)C2)cc1I | >400 µg/mL

The first 3 rows once more:

structure,value
Cc1nc(C(C)C)c2[nH]c(=S)[nH]c(=O)n12,200 µg/mL
Nc1nc(=O)n([C@H]2C[C@H](O)[C@@H](CO)O2)cc1/C=C\Cl,>200 µg/mL
O=c1[nH]c(=O)n([C@H]2C[C@@H](CO)[C@H](O)C2)cc1I,≥400 µg/mL